Target: Neuronal acetylcholine receptor subunit beta-4 (Rattus norvegicus, UniProt P12392)
Assay: Binding affinity to Nicotinic acetylcholine receptor alpha3-beta4 using +/-[3H]epibatidine as radioligand in pig adrenal gland

Sequences of proteins named here, by UniProt entry; tags and fusion partners are left off. Residues count along the entry.
UniProt P12392, 21-495 limits assumed: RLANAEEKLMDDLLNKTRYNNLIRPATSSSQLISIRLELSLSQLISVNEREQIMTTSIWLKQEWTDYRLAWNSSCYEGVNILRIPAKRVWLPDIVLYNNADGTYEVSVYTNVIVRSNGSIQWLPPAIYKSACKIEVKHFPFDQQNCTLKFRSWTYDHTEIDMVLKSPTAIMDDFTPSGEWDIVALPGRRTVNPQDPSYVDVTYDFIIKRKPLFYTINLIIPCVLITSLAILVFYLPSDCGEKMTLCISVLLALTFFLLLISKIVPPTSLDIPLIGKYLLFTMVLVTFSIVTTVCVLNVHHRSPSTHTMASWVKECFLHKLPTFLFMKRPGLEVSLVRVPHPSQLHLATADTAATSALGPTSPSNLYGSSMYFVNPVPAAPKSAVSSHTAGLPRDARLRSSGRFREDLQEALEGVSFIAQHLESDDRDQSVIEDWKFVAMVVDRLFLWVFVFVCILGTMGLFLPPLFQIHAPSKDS

Question: With `CC(=O)C1=CCCC2CCC1N2` (stereo unspecified) as the compound, how does the Ki read?
Answer: 19 nM
